Experimental data from patent US4346087A, “Antibacterial surface active agent containing azaalkenelactam” (priority 1979, dated 1982).

Legend:
[1] = Metal corrosion inhibition in brake fluid A, steel; settings: 100°±2° C., 120±2 hours, blank -0.20
[2] = Metal corrosion inhibition in brake fluid A, aluminum; settings: 100°±2° C., 120±2 hours, blank +0.07
[3] = Metal corrosion inhibition in brake fluid A, cast iron; settings: 100°±2° C., 120±2 hours, blank -0.14
[4] = Metal corrosion inhibition in brake fluid A, tin-plate; settings: 100°±2° C., 120±2 hours, blank -0.15
[5] = Metal corrosion inhibition in brake fluid A, brass; settings: 100°±2° C., 120±2 hours, blank -0.20
[6] = Metal corrosion inhibition in brake fluid A, copper; settings: 100°±2° C., 120±2 hours, blank +0.18
[7] = Table 4, azaalkenelactams […] by weight in brake fluid A
[8] = Table 5, carboxylate derivatives […] by weight in brake fluid A

Compound	Weight change, steel [1, 7]	Weight change, aluminum [2, 7]	Weight change, cast iron [3, 7]	Weight change, tin-plate [4, 7]	Weight change, brass [5, 7]	Weight change, copper [6, 7]	Weight change, steel [1, 8]	Weight change, aluminum [2, 8]	Weight change, cast iron [3, 8]	Weight change, tin-plate [4, 8]	Weight change, brass [5, 8]	Weight change, copper [6, 8]
CCCCCCCCCCCCCCCCCCCCCCNCCN1CCN=C(C)CC1=O [Example 22, 4-docosylaminoethyl-7-methyl-3,6-dihydro-2H-1,4-diazepin-5-one]	0 mg/cm^2	+0.01 mg/cm^2	-0.03 mg/cm^2	0 mg/cm^2	-0.01 mg/cm^2	+0.01 mg/cm^2						
CCCCCCCCCc1ccc(OCCOCCN2CCCN=C(C)CC2=O)cc1 [Example 7, 1-nonylphenylpoly(2 moles)oxyethyleneoxyethyl-4-methyl-3,6,7,8-tetrahydro-1,5-diazocin-2-one]	0 mg/cm^2	+0.03 mg/cm^2	-0.01 mg/cm^2	0 mg/cm^2	-0.02 mg/cm^2	+0.01 mg/cm^2						
CCCCCCCCCCCCCCCCCCCCCC(=O)OCCCN1CCCN=C(C)CC1=O [Example 25, 1-behenoyloxypropyl-4-methyl-3,6,7,8-tetrahydro-1,5-diazocin-2-one]	-0.01 mg/cm^2	0 mg/cm^2	-0.01 mg/cm^2	0 mg/cm^2	-0.03 mg/cm^2	+0.03 mg/cm^2						
CCCCCCCCCCCCCCC(O)CNCCN1CC[N+](CC(=O)[O-])=C(C)CC1=O (stereo not drawn) [4-(2-hydroxyhexadecyl)aminoethyl-7-methyl-1-azonia-4-azacyclohept-7-en-5-one-1-acetate]							-0.02 mg/cm^2	0 mg/cm^2	-0.02 mg/cm^2	-0.01 mg/cm^2	+0.01 mg/cm^2	-0.01 mg/cm^2
CCCCCCCC/C=C\CCCCCCCC(=O)NCCN1CCN=C(C)CC1=O [Example 10, 4-oleamidoethyl-7-methyl-3,6-dihydro-2H-1,4-diazepin-5-one]	-0.01 mg/cm^2	0 mg/cm^2	0 mg/cm^2	-0.02 mg/cm^2	-0.02 mg/cm^2	+0.01 mg/cm^2						
CCCCCCCCOCCCN1CC[N+](CC(=O)[O-])=C(C)CC1=O [4-octoxypropyl-7-methyl-1-azonia-4-azacyclohept-7-en-5-one-1-acetate]							-0.03 mg/cm^2	+0.01 mg/cm^2	0 mg/cm^2	-0.02 mg/cm^2	-0.01 mg/cm^2	+0.01 mg/cm^2
CCCCCCCC(=O)NCCN1CC[N+](CC(=O)[O-])=C(C)CC1=O [4-octamidoethyl-7-methyl-1-azonia-4-azacyclohept-7-en-5-one-1-acetate]							-0.02 mg/cm^2	0 mg/cm^2	-0.01 mg/cm^2	-0.03 mg/cm^2	0 mg/cm^2	0 mg/cm^2
1-coconutalkyl-4-methyl-3,6,7,8-tetrahydro-1,5-diazocin-2-one [Example 15]	0 mg/cm^2	0 mg/cm^2	-0.01 mg/cm^2	0 mg/cm^2	0 mg/cm^2	+0.01 mg/cm^2						
CCCCCCCCCCCCCCNCCN1CCC[N+](C(C)C(=O)[O-])=CC(C)(C)C1=O (stereo not drawn) [1-tetradecylaminoethyl-3,3-dimethyl-1-aza-5-azoniacyclooct-4-en-2-one-5-propionate]							-0.02 mg/cm^2	+0.02 mg/cm^2	-0.02 mg/cm^2	-0.02 mg/cm^2	-0.01 mg/cm^2	0 mg/cm^2
CCCCCCCCCCCC[N+](C)(C)CC(=O)[O-] [Lauryldimethylbetaine, lauryldimethylbetaine, reference compound]							-0.19 mg/cm^2	+0.09 mg/cm^2	-0.15 mg/cm^2	-0.10 mg/cm^2	-0.23 mg/cm^2	-0.15 mg/cm^2
CCCCCCCCCCCCN1CC[N+](CC(=O)[O-])=C(C)CC1=O [4-dodecyl-7-methyl-1-azonia-4-azacyclohept-7-en-5-on-1-acetate]							-0.01 mg/cm^2	0 mg/cm^2	-0.04 mg/cm^2	-0.03 mg/cm^2	+0.01 mg/cm^2	0 mg/cm^2
CCCCCCCC/C=C\CCCCCCCC(=O)OCCN1CC[N+](CC(=O)[O-])=C(C)CC1=O [4-oleoyloxyethyl-7-methyl-1-azonia-4-azacyclohept-7-en-5-one-1-acetate]							-0.02 mg/cm^2	0 mg/cm^2	0 mg/cm^2	-0.01 mg/cm^2	-0.01 mg/cm^2	+0.02 mg/cm^2
CCCCCCCCCCCCN1CCC[N+](CC(=O)[O-])=CC(C)C1=O (stereo not drawn) [1-dodecyl-3-methyl-1-aza-5-azoniacyclooct-4-en-2-one-5-acetate]							-0.01 mg/cm^2	0 mg/cm^2	-0.03 mg/cm^2	-0.03 mg/cm^2	-0.01 mg/cm^2	-0.01 mg/cm^2
CCCCCCCCCc1ccc(OCC(O)CNCCNCCNCCN2CC[N+](CC(=O)[O-])=C(C)CC2=O)cc1 (stereo not drawn) [4-nonylphenoxy(2-hydroxy)propylaminoethylaminoethylaminoethyl-7-methyl-1-azonia-4-azacyclohept-7-en-5-one-1-acetate]							-0.02 mg/cm^2	+0.02 mg/cm^2	-0.02 mg/cm^2	-0.03 mg/cm^2	-0.01 mg/cm^2	+0.01 mg/cm^2
CCCCCCCCCCCCCCC(O)CNCCN1CCN=CC(C)(C)C1=O (stereo not drawn) [Example 59, 4-(2-hydroxyhexadecyl)aminoethyl-6,6-dimethyl-3-hydro-2H-1,4-diazepin-5-one]	0 mg/cm^2	+0.01 mg/cm^2	0 mg/cm^2	-0.01 mg/cm^2	-0.01 mg/cm^2	+0.01 mg/cm^2						
CCCCCCCCCCCCOCCNCCN1CCN=C(C)CC1=O [Example 6, 4-dodecoxyethylaminoethyl-7-methyl-3,6-dihydro-2H-1,4-diazepin-5-one]	-0.01 mg/cm^2	+0.02 mg/cm^2	-0.01 mg/cm^2	0 mg/cm^2	0 mg/cm^2	+0.03 mg/cm^2						
CCCCCCCCCCCCNCCNCCN1CC[N+](CC(=O)[O-])=C(C)CC1=O [4-dodecylaminoethylaminoethyl-1-azonia-4-azacyclohept-7-en-5-one-1-acetate]							-0.03 mg/cm^2	+0.02 mg/cm^2	-0.03 mg/cm^2	-0.02 mg/cm^2	-0.01 mg/cm^2	0 mg/cm^2
CCCCCCCCCCCCCCNCCN1CCN=CC(C)(C)C1=O [Example 58, 4-tetradecylaminoethyl-6,6-dimethyl-3-hydro-2H-1,4-diazepin-5-one]	-0.01 mg/cm^2	0 mg/cm^2	-0.01 mg/cm^2	0 mg/cm^2	-0.01 mg/cm^2	+0.01 mg/cm^2						
